Measured values: paper PMC10215740 (Antibiotics, 2023)

Test: Microdialysis catheter relative recovery (retrodialysis by drug)
Design: species or system pigs (Danish Landrace breed)
Details: microdialysis CMA 70 catheters, 0.9% NaCl with 100 µg/mL meropenem and 300 µg/mL vancomycin, 40 min recovery sample, flow 1 μL/min, range of means across compartments

C[C@@H](O)[C@H]1C(=O)N2C(C(=O)O)=C(S[C@@H]3CN[C@H](C(=O)N(C)C)C3)[C@H](C)[C@H]12 [Meropenem, meropenem]
mean relative recoveries across compartments: 30–51%
